Compound potency records, mixed from different reports. Data source: NIAID ChemDB in PubChem.

Common to all: whole-cell or culture tests; agent: Herpes simplex virus 1; cells: HFF; read-out: EC50

Blank or dashed fields: not listed here. Rows are shuffled and stem from different studies. ECn is the concentration giving n% inhibition of infection, replication or growth.

| smiles | strain | method | result |
|---|---|---|---|
| CN1C=CCC(C(=O)O[C@H]2C[C@H](n3cc(I)c(=O)[nH]c3=O)O[C@@H]2CO)=C1 |  | cytopathic effect | 0.23 µM |
| Nc1ccn(C[C@@H](CO)OCP(=O)(O)O)c(=O)n1 | F | plaque count | 5.7 µM |
| Nc1nc2c(ncn2COC(CO)CO)c(=O)[nH]1 |  | ELISA | 3.5 µM |
| O=c1[nH]c(=O)n([C@H]2C[C@H](O)[C@@H](CO)O2)cc1C(O)C(Br)Br | E-377 | cytopathic effect | 3.9 µM |
| CCCSc1nc(N)nc2c1ncn2/C=C1/C[C@@H]1CO |  | cytopathic effect | >343 µM |
| OC[C@H]1O[C@@H](n2c(Cl)nc3cc(Cl)c(Cl)cc32)[C@H](O)[C@@H]1O |  | ELISA | 102 µM |
| CN1CCN(n2cc(C(=O)NCc3ccc(Cl)cc3)c(=O)c3cc(CN4CCOCC4)ccc32)CC1 | KOS | plaque count | 0.6 µM |
| Nc1nc2c(ncn2COCCO)c(=O)[nH]1 |  | plaque count | 4.1 µM |
| O=c1[nH]c(=O)n(COC(CO)CO)nc1Cc1ccc(O)cc1 |  | cytopathic effect | >100 µM |
| COC(c1cn([C@H]2C[C@H](O)[C@@H](CO)O2)c(=O)[nH]c1=O)C(Br)I | E-377 | cytopathic effect | >100 µM |
| O=C(NCc1ccc(Cl)cc1)c1cn2c3c(cc(CN4CCOCC4)cc3c1=O)OC(c1cccnc1)C2 | L6010381 | plaque count | 5.6 µM |
| COC(c1cn([C@H]2C[C@H](O)[C@@H](CO)O2)c(=O)[nH]c1=O)C(Cl)Br | E-377 | cytopathic effect | 3.7 µM |
| COc1ccccc1CNC(=O)C1=Cc2ccncc2CC1 | McKrae | plaque count | 15.5 µM |
| CCCCC(C)(C)[C@H](O)/C=C/[C@H]1C=CC(=O)[C@@H]1CCCCCCC(=O)O | H198 | hybridisation | 4.6 µg/mL |
| O=c1[nH]c(=O)n(COC(CO)CO)nc1Cc1ccc(Cl)cc1 |  | cytopathic effect | >100 µM |
| CNc1nc2cc(Cl)c(Cl)cc2n1[C@@H]1O[C@@H](CO)[C@H](O)[C@H]1O |  | ELISA | >100 µM |
| CCCCCCCCCCCCCCO[C@@H]1O[C@H](COP(=O)(O)C(=O)O)[C@@H](O)[C@H](O)[C@H]1O | R39 |  | 64 µM |
| Cc1cn([C@H]2C[C@H](O[Si]34OCCN(CCO3)CCO4)[C@@H](CO)O2)c(=O)[nH]c1=O |  | cytopathic effect | >100 µg/mL |
| CCCCCCCCCCCCCCCCCOC[C@H](COP1(=O)CO[C@@H](Cn2ccc(N)nc2=O)CO1)OCc1ccccc1 | F | plaque count | 0.8 µM |
| Nc1ncnc2c1ncn2/C=C1/C[C@H]1CO |  | cytopathic effect | 460 µM |
| Nc1ncnc2c1c(Br)cn2COC(CO)CO |  | virus yield | <17 µM |
| CC(=O)Oc1ccc([C@@H]2CC(=O)c3c(cc(OC(C)=O)c(-c4c(OC(C)=O)cc5c(c4OC(C)=O)C(=O)C[C@@H](c4ccc(OC(C)=O)cc4)O5)c3OC(C)=O)O2)cc1 |  | cytopathic effect | >4 µg/mL |
| CCCCCCCC/C=C\CCCCCCCCOCCOP(=O)(O)CO[C@H](CO)Cn1ccc(N)nc1=O | E-377 | plaque count | 0.03 µM |
| Nc1nc2c(ncn2C=C2CC2CO)c(=O)[nH]1 |  | cytopathic effect | 61.7 µM |
| CN1C=CCC(C(=O)O[C@H]2C[C@H](n3cc(/C=C/I)c(=O)[nH]c3=O)O[C@@H]2CO)=C1 |  | cytopathic effect | 0.014 µM |
| CCCOc1nc(N)nc2c1ncn2/C=C1/C[C@@H]1CO |  | cytopathic effect | 42.5 µM |
| Nc1ccn(C[C@@H](CO)OCP(=O)(O)O)c(=O)n1 | F | plaque count | 0.6 µg/mL |
| CC[C@]1(Cl)C(=O)NC(=O)N([C@H]2C[C@H](O)[C@@H](CO)O2)[C@@H]1OC | E-377 | cytopathic effect | >50 µM |
| Cc1cn([C@H]2C[C@H](O)[C@]3(CO)C[C@H]23)c(=O)[nH]c1=O | F (TK+) | plaque count | 0.07 µg/mL |
| Nc1nc2c(ncn2/C=C2/CC2(CO)CO)c(=O)[nH]1 |  | cytopathic effect | >404 µM |
| O=c1[nH]c(=O)n(COCCO)nc1Cc1ccc(Cl)cc1 |  | cytopathic effect | >100 µM |
| COC(c1cn([C@H]2C[C@H](O)[C@@H](CO)O2)c(=O)[nH]c1=O)C(Cl)Cl | E-377 | cytopathic effect | 22.9 µM |
| COC(=O)[C@H](C)NP(=O)(OC[C@H]1C/C1=C/n1cnc2c(=O)[nH]c(N)nc21)Oc1ccccc1 |  | plaque count | 22.1 µM |
| Nc1nc(OCC2CC2)c2ncn(/C=C3/C[C@@H]3CO)c2n1 |  | cytopathic effect | 6.3 µM |
| O=c1[nH]c(=O)n(COCCO)nc1Cc1ccc(O)cc1 |  | cytopathic effect | >100 µM |
| O=c1[nH]c(=O)n([C@H]2C[C@H](O)[C@@H](CO)O2)cc1/C=C/I |  | cytopathic effect | 0.016 µM |
| O=c1[nH]c(=O)n([C@H]2C[C@H](O)[C@@H](CO)O2)cc1C(O)C(Cl)Cl | E-377 | cytopathic effect | >73.5 µM |
| Nc1nc(NC2CC2)c2ncn(/C=C3/C[C@@H]3CO)c2n1 |  | cytopathic effect | 63.5 µM |
| Nc1ncnc2c1ncn2[C@@H]1O[C@H](CO)[C@@H](O)[C@@H]1O | P-ACG-R | plaque count | 42 µg/mL |
| CC(=O)OCC(COC(C)=O)OCn1cnc2c(=O)[nH]c(N)nc21 |  | plaque count | 2.8 µg/mL |
| Nc1ncnc2c1c(Cl)cn2COC(CO)CO |  | plaque count | 2 µM |
| C=C(C)[C@@H]1CCc2c(O)c(O)c(=O)cc(C)c2C1 | Clinical isolate | plaque count | 0.24 µM |
| CCCCCCCC/C=C\CCCCCCCOCCOP1(=O)CO[C@@H](Cn2ccc(N)nc2=O)CO1 | HL-3 | plaque count | 0.07 µM |
| Cc1cn([C@@H]2O[C@H](CO)[C@H]2CO)c(=O)[nH]c1=O | 11893 (TK altered) | plaque count | 82 µg/mL |
| CC(N)c1cn([C@H]2C[C@H](O)[C@@H](CO)O2)c(=O)[nH]c1=O | E-377 | cytopathic effect | 1.7 µM |
| O=C(O)P(=O)(O)O | R39 |  | 222 µM |
| COc1cc(OC)c(NC(=S)Nc2ccc(NC(=O)c3ccco3)cc2)cc1Cl | Patton |  | >20 µM |
| NC(=S)c1cn(COCCO)c2ncnc(N)c12 | E-377 | plaque count | 21 µM |
| C=CCNc1nc(N)nc2c1ncn2/C=C1/C[C@@H]1CO |  | cytopathic effect | 227 µM |
| CCCOc1nc(N)nc2c1ncn2/C=C1/C[C@@H]1CO |  | cytopathic effect | 42.5 µM |
| Nc1nc(NC2CC2)c2ncn(/C=C3/C[C@@H]3CO)c2n1 |  | cytopathic effect | 63.5 µM |
| CCCCCCCCCCCCCCO[C@H]1O[C@H](CO)[C@@H](O)[C@H](O)[C@H]1O | R39 |  | 72 µM |
| COc1cc(OC)c(NC(=S)Nc2ccc(NC(=O)c3ccccc3F)cc2Cl)cc1Cl | Patton | ELISA | 0.2 µg/mL |
| O[C@@H]1[C@H](O)[C@H](O)CO[C@H]1n1c(Br)nc2cc(Cl)c(Cl)cc21 |  | plaque count | >50 µM |
| CC(C)Nc1nc2cc(Cl)c(Cl)cc2n1[C@@H]1O[C@@H](CO)[C@H](O)[C@H]1O |  | ELISA | >100 µM |
| Cc1cc(C)c(OC(=O)c2ccc(Cl)cc2)c(=O)c(C)c1 | Clinical isolate | plaque count | 1.63 µM |
| Nc1nc(OCC2CC2)c2ncn(/C=C3/C[C@@H]3CO)c2n1 |  | cytopathic effect | 6.3 µM |
| CCCCCCCC/C=C/CCCCCCCCO[C@H]1O[C@H](COP(=O)(O)C(=O)O)[C@@H](O)[C@H](O)[C@H]1O | R39 |  | 35 µM |
| CCc1cn([C@H]2C[C@H](O)[C@@H](CO)O2)c(=O)[nH]c1=O | E-377 | cytopathic effect | >170 µM |
| Cc1ccc(Cc2nn(COCCO)c(=O)[nH]c2=O)cc1 |  | cytopathic effect | >100 µM |
| COC(=O)[C@H](C)NP(=O)(OC[C@H]1C/C1=C/n1cnc2c(OC)nc(N)nc21)Oc1ccccc1 |  | cytopathic effect | 0.78 µM |
| Nc1nc2c(ncn2/C=C2\CC2(CO)CO)c(=O)[nH]1 | E-377 | plaque count | >380 µM |
| CCOc1ccc(-c2c3cc(O)c(=O)cc-3oc3cc(O)c(O)cc23)cc1 | Clinical isolate | plaque count | 0.32 µM |
| COC(=O)[C@H]1[C@@H]2C[C@@H](O[C@@H]3O[C@H](C)[C@@H](O)[C@H](N)[C@@H]3O)/C=C/C=C/C=C/C=C/C=C/C=C/C=C/[C@H](C)[C@@H](O)[C@H](C)[C@H](C)OC(=O)C[C@H](O)C[C@H](O)[C@@H](O)CC[C@H](O)C[C@H](O)C[C@](O)(C[C@@H]1O)O2 |  | plaque count | 1 µg/mL |
| CCCCCCCCCCCCOCCCOP1(=O)CO[C@@H](Cn2ccc(N)nc2=O)CO1 | F | plaque count | 0.9 µM |
| CC(=O)OCC(CO)OCn1cnc2c(=O)[nH]c(N)nc21 |  | plaque count | 1.5 µg/mL |
| [N-]=[N+]=NC(CBr)c1cn(CCC(CO)CO)c(=O)[nH]c1=O | E-377 (TK+) | cytopathic effect | >270 µM |
| C#CCNc1nc(N)nc2c1ncn2/C=C1/C[C@@H]1CO |  | cytopathic effect | >370 µM |
| O=C(NNCc1cccc(O)c1O)c1ccccc1O | KOS | PCR | 0.35 µM |
| C=CCOc1nc(N)nc2c1ncn2/C=C1/C[C@@H]1CO |  | cytopathic effect | >366 µM |
| Cn1cc(C(=O)NCc2ccc(Cl)cc2)c(=O)c2cc(CN3CCOCC3)ccc21 | SC16-S1 (acyclovir-resistant) | plaque count | 3.5 µM |
| Nc1ncnc2c1ncn2[C@@H]1C[C@H](NC=O)[C@@H](O)[C@H]1O |  |  | >100 µg/mL |
| Nc1nc(Cl)c2ncn(/C=C3/C[C@H]3CO)c2n1 |  | cytopathic effect | 76.4 µM |
| C#CCNc1nc(N)nc2c1ncn2/C=C1/C[C@@H]1CO |  | cytopathic effect | >370 µM |